Pooled drug test results. Numbers come from NIAID ChemDB, via PubChem.

Shared fields: growth or infection tests; organism: Candida albicans

A number after MIC or MFC names an inhibition level or a share of isolates. ECn is the concentration giving n% inhibition of infection, replication or growth. An empty or dashed field is not shown. Neighbouring rows are from separate reports.

SMILES,endpoint,strain or isolate,read by,result
O=C(CSc1nnc(-c2ccco2)n1-c1ccc(Br)cc1)NNC(=S)Nc1ccc([N+](=O)[O-])cc1,MIC,ATCC 10231,-,4 µg/mL
Clc1ccccc1Nc1ccnc(Nc2ccccc2Cl)n1,MIC50,-,-,1.14 µg/mL
Cc1ccc(Cc2n[nH]c(=O)n2N2C(=O)c3ccccc3C2=O)cc1,MIC,ATCC16231,-,>250 µg/mL
Cc1ccc(N2C(=O)C(Cl)C23C(=O)Nc2ccccc23)cc1,MIC100,MTCC 183,-,16 µg/mL
Clc1cccc(Nc2ccnc(Nc3cccc(Cl)c3)n2)c1,MIC50,-,-,0.82 µg/mL
NC(=NC1CCCC1)c1ccc(-c2ccc(-c3ccc(C(N)=NC4CCCC4)cc3)o2)cc1,MFC,ATCC 76615,-,50 µg/mL
O=c1[nH][nH]c2c1C(c1ccc(Cl)cc1)CC(c1ccc3ccccc3c1)=C2,MIC,-,-,6.25 µg/mL
CN=[N+]([O-])CC[C@H](N)C(=O)O,MIC80,652 (5-flucytosine-resistant),-,5.8 µg/mL
Fc1ccc(Nc2nnc(CSc3nnc(-c4ccco4)n3-c3ccc(Br)cc3)s2)cc1,MIC,ATCC 10231,-,8 µg/mL
Oc1ccc(Nc2ccnc(Nc3ccc(O)cc3)n2)cc1,MIC50,-,-,62 µg/mL
Cc1ccccc1N1C(=O)C(Cl)C12C(=O)Nc1ccccc12,MIC100,MTCC 183,-,11 µg/mL
CCCCCC(Cn1ccnc1)c1ccccc1Cl,MIC,-,-,>100 µg/mL
O=c1[nH]nc(Cc2ccc(Cl)cc2)n1Nc1ccccc1,MIC,ATCC16231,-,>250 µg/mL
COC(=O)/C=C/C(=O)NCC(NC(=O)[C@H](C)N)C(=O)O,MIC,-,-,3.12 µg/mL
O=c1[nH][nH]c2c1C(c1ccccc1)CC(c1ccc3ccccc3c1)=C2,MIC,-,-,50 µg/mL
O=C(CSc1nnc(-c2ccco2)n1-c1ccc(Br)cc1)NNC(=S)Nc1ccc(Br)cc1,MIC,ATCC 10231,-,8 µg/mL
Cc1n[nH]c(=O)n1N1C(=O)c2ccccc2C1=O,MIC,ATCC16231,-,>250 µg/mL
O=C1C(Cl)C2(C(=O)Nc3ccccc32)N1c1ccccc1,MIC100,MTCC 183,-,23 µg/mL
CC(C)c1ccc(S(=O)(=O)Nc2ccc(CN(C)CC(O)(Cn3cncn3)c3ccc(F)cc3F)cc2)cc1,MIC,98 001,resazurin,0.023 µg/mL
O=[N+]([O-])c1ccc(Nc2ccnc(Nc3ccc([N+](=O)[O-])cc3)n2)cc1,MIC50,-,-,0.62 µg/mL
NNC(=O)CSc1nnc(-c2ccco2)n1-c1ccc(Br)cc1,MIC,ATCC 10231,-,8 µg/mL
c1ccc(-c2ccc(COC(Cn3ccnc3)c3ccccc3)cc2)cc1,MIC,PR1,-,>128 µg/mL
COc1ccc(C[n+]2ccc3c4c(cc(OC)c(OC)c42)C=CN3Cc2cc(OC)c(OC)c(OC)c2)cc1O,MIC,-,-,>64 µg/mL
CC(Cn1ccnc1)c1ccc(F)cc1,MIC,-,-,>100 µg/mL
O=C1C(Cl)C2(C(=O)Nc3c(Br)cc(Br)cc32)N1c1ccccc1,MIC100,MTCC 183,-,17 µg/mL
O=C1CCC(=O)N1n1c(Cc2ccccc2)n[nH]c1=O,MIC,ATCC16231,-,>250 µg/mL
O=C1C(Cl)C2(C(=O)Nc3ccccc32)N1c1ccccc1[N+](=O)[O-],MIC100,MTCC 183,-,>100 µg/mL
Cc1cc2c(O[C@H]3O[C@H](CO)[C@@H](O)[C@H]3O)ccc(O)c2c(=O)o1,MIC,ATCC 10231,turbidity,>128 µg/mL
COC(=O)/C=C/C(=O)NCC(NC(=O)[C@@H](N)CC(C)C)C(=O)O,MIC,-,-,0.78 µg/mL
C[C@@H]1C[C@@H](O)c2c(O[C@H]3O[C@H](CO)[C@@H](O)[C@H]3O)cccc2O1,MIC,ATCC 10231,turbidity,>128 µg/mL
Clc1ccc(Nc2nnc(CSc3nnc(-c4ccco4)n3-c3ccc(Br)cc3)s2)cc1,MIC,ATCC 10231,-,>32 µg/mL
CN(Cc1ccc(S(N)(=O)=O)cc1)CC(O)(Cn1cncn1)c1ccc(F)cc1F,MIC,98 001,resazurin,0.013 µg/mL
CCCCNc1nnc(CSc2nnc(-c3ccco3)n2-c2ccc(Br)cc2)s1,MIC,ATCC 10231,-,8 µg/mL
CCc1n[nH]c(=O)n1-c1ccncc1,MIC,ATCC16231,-,>250 µg/mL
CCCc1ccc(NS(=O)(=O)c2ccc(CN(C)CC(O)(Cn3cncn3)c3ccc(F)cc3F)cc2)cc1,MIC,CAAL-74,resazurin,0.011 µg/mL
CCCCn1nc(-c2ccccc2)n(NC)c1=O,MIC,ATCC16231,-,>250 µg/mL
CC(C)S(=O)(=O)Nc1ccc(CN(C)CC(O)(Cn2cncn2)c2ccc(F)cc2F)cc1,MIC,98 001,resazurin,0.026 µg/mL
N[C@H]1CCC[C@H]1C(=O)O,MIC,ATCC 32354 (B311),-,5 µg/mL
COC(=O)/C=C/C(=O)NCC(N)C(=O)N[C@@H](CCSC)C(=O)O,MIC,-,-,3.12 µg/mL
CCn1nc(-c2ccc(C)cc2)n(NC)c1=O,MIC,ATCC16231,-,>250 µg/mL
Cc1ccc(Nc2ccnc(Nc3ccc(C)cc3)n2)cc1,MIC50,-,-,0.9 µg/mL
COC(=O)/C=C/C(=O)NCC(NC(=O)CN)C(=O)O,MIC,-,-,50 µg/mL
CN(Cc1ccc(S(=O)(=O)Nc2ccccc2)cc1)CC(O)(Cn1cncn1)c1ccc(F)cc1F,MIC,DSY735,resazurin,1.03 µg/mL
CCCC(NC(=O)C(N)CNC(=O)/C=C/C(=O)OC)C(=O)O,MIC,-,-,3.12 µg/mL
CCCCCCCCC(Cn1ccnc1)c1ccccc1Br,MIC,-,-,>100 µg/mL
COC(=O)/C=C/C(=O)NCC(N)C(=O)N[C@@H](Cc1ccc(O)cc1)C(=O)O,MIC,-,-,12.5 µg/mL
OCCNc1nnc2c(cnc3ccccc32)n1,MIC,VM-81,-,50 µg/mL
COC(=O)/C=C/C(=O)NCC(N)C(=O)N[C@H](C(=O)O)C(C)C,MIC,-,-,3.12 µg/mL
CC(=O)Nc1ccc(C(=O)N/N=C/c2cccc(O)c2)cc1,EC50,ATCC 10231,broth dilution,17 µM

The first 3 rows once more:

SMILES | endpoint | strain or isolate | read by | result
O=C(CSc1nnc(-c2ccco2)n1-c1ccc(Br)cc1)NNC(=S)Nc1ccc([N+](=O)[O-])cc1 | MIC | ATCC 10231 | - | 4 µg/mL
Clc1ccccc1Nc1ccnc(Nc2ccccc2Cl)n1 | MIC50 | - | - | 1.14 µg/mL
Cc1ccc(Cc2n[nH]c(=O)n2N2C(=O)c3ccccc3C2=O)cc1 | MIC | ATCC16231 | - | >250 µg/mL